From PMC3517363 come the findings set out here.

The chains behind the UniProt entries cited, without tags or fusion partners.
UniProt P03069, whole entry: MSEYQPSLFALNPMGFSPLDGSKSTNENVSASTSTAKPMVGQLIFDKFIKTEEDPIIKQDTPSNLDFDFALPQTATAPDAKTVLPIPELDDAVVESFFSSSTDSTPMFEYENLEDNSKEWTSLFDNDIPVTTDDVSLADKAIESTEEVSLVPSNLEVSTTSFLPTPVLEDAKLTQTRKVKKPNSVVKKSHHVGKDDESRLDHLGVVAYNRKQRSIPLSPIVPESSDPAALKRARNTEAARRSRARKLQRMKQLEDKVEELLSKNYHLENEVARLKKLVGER

What all share (experiment): two-hybrid
Assay [1] deals with T25-Zip (UniProt P03069).
In assay [2] the target is T25-Zip (UniProt P03069). This is another data set of the same source.
Assay [3] has as its target T25-Zip (UniProt P03069). The source holds these as a separate data set.
Assay [4] has as its target T25-Zip (UniProt P03069). The source holds these as a separate data set.
Assay [5] addresses T25-Zip (UniProt P03069). The source holds these as a separate data set.

Where two headings read alike, the source gives them in different places.

On to “T18-Zip (from UniProt P03069 1-281) (domain or fragment)”, for which the β-galactosidase activity (units/mg dry weight of bacteria) with T25-Zip [1] stood at 1550; with T25-Zip [2], 1600; with T25-Zip [3], 1780; with T25-Zip [4] it was 1520; with T25-Zip [5], 1500. Also, the β-galactosidase activity in the assay with T25-Zip [3] was determined as 1450 units.
